Test system: Murine splenic lymphocytes
Experiment: MSLCs-concanavalin A induced proliferation (blastogenesis) cytotoxicity assay, Alamar Blue fluorescence
Type: cell-based
Settings: in vitro therapeutic index = ratio of MSLCs IC50 to D6 IC50
Method: *Data are the average of at least 3 independent experiments, each performed in triplicate with the aid of a Precision 2000 robotic pipeting station. IC50 values were determined by the MSF assay. […] MSLCs=Murine splenic lymphocytes. Cytotoxicity was determined using a 24-hr MSLCs-concanavalin A induced proliferation assay using the Alamar Blue fluorescence method. IVTI=in vitro therapeutic index calculated from the ratio of IC50 values based on the cytotoxicity observed in the blastogenesis assay and the antimalarial potency against the D6 strain of P. falciparum. NT=not tested.
*Data are the average of at least 3 independent experiments, each performed in triplicate with the aid of a Precision 2000 robotic pipeting station. IC50 values were determined by the MSF assay (Smilkstein et al., AAC, 2004). MSLCs=Murine splenic lymphocytes. Cytotoxicity was determined using a 48-hr MSLCs-concanavalin A induced proliferation assay using the Alamar Blue fluorescence method. IVTI=in vitro therapeutic index calculated from the ratio of IC50 values of the cytotoxicity observed in the blastogenesis assay and antimalarial potency against the D6 strain of P. falciparum. NA=not applicable; ND=not determined.

Structure (SMILES)	IVTI (Table 2)	IVTI (Table 3)
CCN(CC)CCCC(C)Nc1ccnc2cc(Cl)ccc12 (racemic) [compound 36]	500	
OC(c1cc(C(F)(F)F)nc2c(C(F)(F)F)cccc12)C1CCCCN1 (racemic) [compound 38]	813	
O=c1c2ccccc2[nH]c2ccc(O)cc12 [compound 5]	>2.8	
O=c1c2ccccc2[nH]c2cc(O)ccc12 [compound 6]	>12.5	
COc1ccc2[nH]c3cc(Cl)ccc3c(=O)c2c1 [compound 7]	>556	
O=c1c2ccc(Cl)cc2[nH]c2ccc(O)cc12 [compound 8]	126	
COc1ccc2nc3cc(Cl)ccc3c(N)c2c1 [compound 9]	25	
O=c1c2ccc(Cl)cc2[nH]c2ccc(OCCCCCBr)cc12 [compound 10]	171	
O=c1c2ccc(O)cc2oc2cc(OCCCCCC(F)(F)F)ccc12 [compound 11]	>543	
O=C1C=C(OCCCCCC(F)(F)F)C(=O)c2ccccc21 [compound 12]	83	
COc1ccc2c(=O)c3ccc(Cl)cc3[nH]c2c1 [compound 13]	>329	
O=c1c2ccc(O)cc2[nH]c2cc(Cl)ccc12 [compound 14]	6.4	
O=C1c2ccc(OCCCCCC(F)(F)F)cc2C(=O)c2ccc(O)cc21 [compound 15]	>926	
O=c1c2ccc(Cl)cc2[nH]c2cc(OCCCCCCl)ccc12 [compound 16]	>2,000	
O=c1c2ccc(Cl)cc2[nH]c2cc(OCCCC(F)(F)F)ccc12 [compound 17]	>25,000	
O=c1c2ccc(Cl)cc2[nH]c2cc(OCCCCC(F)(F)F)ccc12 [compound 18]	>83,000	
O=c1c2ccc(Cl)cc2oc2cc(OCCCCC(F)(F)F)ccc12 [compound 19]	>1.6	
O=c1c2ccccc2[nH]c2cc(OCCCCC(F)(F)F)ccc12 [compound 20]	>50,000	
O=c1c2ccc(Cl)cc2[nH]c2cc(OCCCCCC(F)(F)F)ccc12 [compound 21]	>416,000	
O=c1c2ccc(Cl)cc2[nH]c2ccc(OCCCCCC(F)(F)F)cc12 [compound 22]	>2,500	

Structure (SMILES)	IVTI (Table 2)	IVTI (Table 3)
O=c1c2ccc(Cl)cc2[nH]c2cc(OCCCCC(F)(F)C(F)(F)F)ccc12 [compound 23]	>100,000	
O=c1c2ccc(Cl)cc2[nH]c2cc(OCCCCC(F)(C(F)(F)F)C(F)(F)F)ccc12 [compound 24]	>100,000	
O=c1c2ccccc2[nH]c2ccc(OCCCCCC(F)(F)F)cc12 [compound 25]	>694	
O=c1c2ccccc2[nH]c2cc(OCCCCCC(F)(F)F)ccc12 [compound 26]	>58,000	
O=c1c2ccccc2[nH]c2c(OCCCCCC(F)(F)F)cccc12 [compound 27]	>56	
O=c1c2ccc(Cl)cc2[nH]c2cc(OCCCCCCCC(F)(F)F)ccc12 [compound 28]	>100,000	
O=c1c2ccc(Cl)cc2[nH]c2cc(OCCCCCCCCO)ccc12 [compound 29]	>11,000	
O=c1c2ccc(Cl)cc2[nH]c2cc(OCCCCCCCCCCC(F)(F)F)ccc12 [compound 30]	>100,000	
Cn1c2cc(Cl)ccc2c(=O)c2ccc(OCCCCC(F)(F)F)cc21 [compound 31]	>6.25	
Nc1c2ccc(Cl)cc2nc2cc(OCCCCCC(F)(F)F)ccc12 [compound 32]	86	
O=c1c2ccc(OCCCCCC(F)(F)F)cc2[nH]c2cc([N+](=O)[O-])ccc12 [compound 33]	>7,800	
O=C1C=C(OCCCCC(F)(F)F)C(=O)c2ccccc21 [compound 35]	437.5	
C=CC1CN2CCC1CC2C(O)c1ccnc2ccc(OC)cc12 (stereo not drawn) [compound 37]	2,091	
CC1CCC2C(C)C(=O)OC3OC4(C)CCC1C32OO4 (stereo not drawn) [compound 39]	>38,000	
CCOC(=O)c1c[nH]c2cc(OC)ccc2c1=O [compound 41]		56.8
COc1ccc2c(=O)cc(C)[nH]c2c1 [compound 43]		>3.5
COc1ccc2c(=O)c(CCCCCC(F)(F)F)c(C)[nH]c2c1 [compound 44]		≈2,000
COc1ccc2c(=O)c(CCCCCCCCCCC(F)(F)F)c(C)[nH]c2c1 [compound 45]		>100,000
CCOC(=O)c1c[nH]c2cc(OCCCCCC(F)(F)F)ccc2c1=O [compound 46]		>20,000

Source: patent US7829578B1, “Aromatic ketones and uses thereof” (Oregon Health & Science University, priority 2005, dated 2010)
